Measured values published in patent US20220380347A1.

Chains of the proteins cited; added tags and fusions are not shown. Residues count along the entry.
UniProt P0C6X1, 2966-3267 limits assumed: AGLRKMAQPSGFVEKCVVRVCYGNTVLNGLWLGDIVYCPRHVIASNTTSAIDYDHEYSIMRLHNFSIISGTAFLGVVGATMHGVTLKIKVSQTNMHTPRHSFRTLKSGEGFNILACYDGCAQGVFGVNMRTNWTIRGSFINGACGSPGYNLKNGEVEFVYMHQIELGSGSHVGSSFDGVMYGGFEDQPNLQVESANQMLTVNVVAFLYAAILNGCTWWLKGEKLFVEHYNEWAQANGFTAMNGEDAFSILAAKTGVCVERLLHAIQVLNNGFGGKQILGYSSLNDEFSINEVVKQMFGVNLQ

Tests used:
HCov OC43 = settings: read-out: OC43 IC50 (uM) MEDIAN
229E Mpro = 229E Mpro (Human coronavirus 229E, UniProt P0C6X1); assay: 229E Mpro enzymatic assay; settings: read-out: 229E Mpro EC50

Row | Compound | IC50 (HCov OC43) [µM] | EC50 (229E Mpro) [nM]
1 | Cc1[nH]ncc1C(C(=O)NC1CCC(F)(F)CC1)N(C(=O)[C@H]1C[C@@](C)(O)CN1C#N)c1ccc(S(F)(F)(F)(F)F)cc1 (single isomer, unassigned) [1007c Isomer 1] | 2 to 10 | < 2000
2 | Cc1[nH]ncc1C(C(=O)NC1CCC(F)(F)CC1)N(C(=O)[C@H]1C[C@@](C)(O)CN1C#N)c1ccc(S(F)(F)(F)(F)F)cc1 (single isomer, unassigned) [1007c Isomer 2] | 2 to 10 | < 2000
3 | N#CN1C[C@H](OC(F)F)C[C@@H]1C(=O)N(c1ccc(S(F)(F)(F)(F)F)cc1)C(C(=O)NC1CCC(F)(F)CC1)c1cncc(F)c1 (single isomer, unassigned) [1088 Isomer 1] | < 2 | < 2000
4 | N#CN1C[C@H](OC(F)F)C[C@@H]1C(=O)N(c1ccc(S(F)(F)(F)(F)F)cc1)C(C(=O)NC1CCC(F)(F)CC1)c1cncc(F)c1 (single isomer, unassigned) [1088 Isomer 2] | 2 to 10 | < 2000
5 | N#CN1CC[C@@H](F)[C@@H]1C(=O)N(c1ccc(S(F)(F)(F)(F)F)cc1)C(C(=O)NC1CCC(F)(F)CC1)c1cncc(F)c1 (single isomer, unassigned) [1092 Isomer 1] | < 2 | < 2000
6 | N#CN1CC[C@@H](F)[C@@H]1C(=O)N(c1ccc(S(F)(F)(F)(F)F)cc1)C(C(=O)NC1CCC(F)(F)CC1)c1cncc(F)c1 (single isomer, unassigned) [1092 Isomer 2] | 2 to 10 | < 2000
7 | N#CN1C[C@@H]2CC[C@@H]2[C@@H]1C(=O)N(c1ccc(S(F)(F)(F)(F)F)cc1)C(C(=O)NC1CCC(F)(F)CC1)c1cncc(F)c1 (single isomer, unassigned) [1097 Isomer 1.1] | < 2 | < 2000
8 | N#CN1C[C@@H]2CC[C@@H]2[C@@H]1C(=O)N(c1ccc(S(F)(F)(F)(F)F)cc1)C(C(=O)NC1CCC(F)(F)CC1)c1cncc(F)c1 (single isomer, unassigned) [1097 Isomer 1.2] | > 30 | > 30000
9 | N#CN1C[C@@H]2CC[C@@H]2[C@@H]1C(=O)N(c1ccc(S(F)(F)(F)(F)F)cc1)C(C(=O)NC1CCC(F)(F)CC1)c1cncc(F)c1 (single isomer, unassigned) [1097 Isomer 2.1] | 10 to 30 | 2000 to 10000
10 | N#CN1C[C@@H]2CC[C@@H]2[C@@H]1C(=O)N(c1ccc(S(F)(F)(F)(F)F)cc1)C(C(=O)NC1CCC(F)(F)CC1)c1cncc(F)c1 (single isomer, unassigned) [1097 Isomer 2.2] | 10 to 30 | 2000 to 10000
11 | CC(C)(C)c1ccc(N(C(=O)[C@H]2CCCN2C#N)C(C(=O)N[C@H]2C[C@@](C)(O)C2)c2cccnc2)cc1 (single isomer, unassigned) [1120 Isomer 1] | 2 to 10 | < 2000
12 | CC(C)(C)c1ccc(N(C(=O)[C@H]2CCCN2C#N)C(C(=O)N[C@H]2C[C@@](C)(O)C2)c2cccnc2)cc1 (single isomer, unassigned) [1120 Isomer 2] | 10 to 30 | < 2000
13 | CO[C@@H]1C[C@H](C(=O)N(c2ccc(S(F)(F)(F)(F)F)cc2)C(C(=O)NCCC2CCCCN2C(=O)OC(C)(C)C)c2cccnc2)N(C#N)C1 (single isomer, unassigned) [1121b Isomer 1] | > 30 | 2000 to 10000
14 | CO[C@@H]1C[C@H](C(=O)N(c2ccc(S(F)(F)(F)(F)F)cc2)C(C(=O)NCCC2CCCCN2C(=O)OC(C)(C)C)c2cccnc2)N(C#N)C1 (single isomer, unassigned) [1121b Isomer 2] | 2 to 10 | < 2000
15 | CC1(C)CNc2cc(N(C(=O)[C@H]3C[C@@](C)(O)CN3C#N)C(C(=O)NC3CCC(F)(F)CC3)c3cncc(F)c3)ccc21 (single isomer, unassigned) [1131 Isomer 1] | < 2 | < 2000
16 | CC1(C)CNc2cc(N(C(=O)[C@H]3C[C@@](C)(O)CN3C#N)C(C(=O)NC3CCC(F)(F)CC3)c3cncc(F)c3)ccc21 (single isomer, unassigned) [1131 Isomer 2] | 2 to 10 | < 2000
17 | CO[C@@H]1C[C@H](C(=O)N(c2ccc(C(C)(C)C)cc2)C(C(=O)NC2CCOCC2)c2cccnc2)N(C#N)C1 (single isomer, unassigned) [1140 Isomer 1] | < 2 | < 2000
18 | CO[C@@H]1C[C@H](C(=O)N(c2ccc(C(C)(C)C)cc2)C(C(=O)NC2CCOCC2)c2cccnc2)N(C#N)C1 (single isomer, unassigned) [1140 Isomer 2] | 2 to 10 | < 2000
19 | CO[C@@H]1C[C@H](C(=O)N(c2ccc(S(F)(F)(F)(F)F)cc2)C(C(=O)NC2CCC(F)(F)CC2)c2cccnc2)N(C#N)C1 (single isomer, unassigned) [1154 Isomer 1] | 2 to 10 | < 2000
20 | CO[C@@H]1C[C@H](C(=O)N(c2ccc(S(F)(F)(F)(F)F)cc2)C(C(=O)NC2CCC(F)(F)CC2)c2cccnc2)N(C#N)C1 (single isomer, unassigned) [1154 Isomer 2] | < 2 | < 2000
21 | CC1(C)CN(C#N)[C@@H](C(=O)N(c2ccc(S(F)(F)(F)(F)F)cc2)C(C(=O)NC2CCC(F)(F)CC2)c2cccnc2)CO1 (single isomer, unassigned) [1163 Isomer 1] | 10 to 30 | < 2000
22 | CC1(C)CN(C#N)[C@@H](C(=O)N(c2ccc(S(F)(F)(F)(F)F)cc2)C(C(=O)NC2CCC(F)(F)CC2)c2cccnc2)CO1 (single isomer, unassigned) [1163 Isomer 2] | < 2 | < 2000
23 | CO[C@@H]1C[C@H](C(=O)N(c2ccc(S(F)(F)(F)(F)F)cc2)C(C(=O)N2CCC3(COC3)C2)c2cccnc2)N(C#N)C1 (single isomer, unassigned) [1174 Isomer 1] | < 2 | < 2000
24 | CO[C@@H]1C[C@H](C(=O)N(c2ccc(S(F)(F)(F)(F)F)cc2)C(C(=O)N2CCC3(COC3)C2)c2cccnc2)N(C#N)C1 (single isomer, unassigned) [1174 Isomer 2] | 10 to 30 | < 2000
25 | CO[C@@H]1C[C@H](C(=O)N(c2ccc(S(F)(F)(F)(F)F)cc2)C(C(=O)N[C@H]2C[C@@](C)(O)C2)c2cccnc2)N(C#N)C1 (single isomer, unassigned) [1195 Isomer 1] | < 2 | < 2000
26 | CO[C@@H]1C[C@H](C(=O)N(c2ccc(S(F)(F)(F)(F)F)cc2)C(C(=O)N[C@H]2C[C@@](C)(O)C2)c2cccnc2)N(C#N)C1 (single isomer, unassigned) [1195 Isomer 2] | < 2 | < 2000
27 | CO[C@@H]1C[C@H](C(=O)N(c2ccc(S(F)(F)(F)(F)F)cc2)C(C(=O)NC(C)C2CCN(C(=O)OC(C)(C)C)C2)c2cccnc2)N(C#N)C1 (single isomer, unassigned) [1293 Isomer 1] | 2 to 10 | < 2000
28 | CO[C@@H]1C[C@H](C(=O)N(c2ccc(S(F)(F)(F)(F)F)cc2)C(C(=O)NC(C)C2CCN(C(=O)OC(C)(C)C)C2)c2cccnc2)N(C#N)C1 (single isomer, unassigned) [1293 Isomer 2] | < 2 | < 2000
29 | CO[C@@H]1C[C@H](C(=O)N(c2ccc(S(F)(F)(F)(F)F)cc2)C(C(=O)NC(C)C2CCN(C(=O)OC(C)(C)C)C2)c2cccnc2)N(C#N)C1 (single isomer, unassigned) [1293 Isomer 3] | 2 to 10 | < 2000
